# Tested on: Clostridium perfringens
# Assay: Antibacterial activity against beta-lactamase producing Clostridium perfringens by CLSI agar dilution method
# Assay type: functional
smiles,measurement,value
C[C@H]1COc2c(N3CCN(C)CC3)c(F)cc3c(=O)c(C(=O)O)cn1c23.C[C@H]1COc2c(N3CCN(C)CC3)c(F)cc3c(=O)c(C(=O)O)cn1c23.O [LEVOFLOXACIN],MIC50,0.5 mg/L

# — ChEMBL document CHEMBL1671627, “Increasing trends in antimicrobial resistance among clinically important anaerobes and Bacteroides fragilis isolates causing nosocomial infections: emerging resistance to carbapenems” (2008)
